Test system: SARS-CoV-2 KCDC03
Assay: microbe, parasite or virus in culture
Format: cell-based
Conditions: Severe acute respiratory syndrome coronavirus 2, read-out: half-maximal inhibitory concentration (IC50)

CC(C)N1CCN(c2ccc(/C(=C(/CCCO)c3ccccc3)c3ccc(O)cc3)cc2)CC1 [DN200434]
IC50: 1860 ± 800 nM

— patent publication US20260183277A1, “ANTIVIRAL PHARMACEUTICAL COMPOSITION COMPRISING ERRy INHIBITOR AS ACTIVE INGREDIENT” (priority 2024, published 2026)
